PubChem BioAssay AID624099, ICCB-Longwood – 2012
This is a random part of about 21,000 reagents tested. 497 of all reagents (2.4%) were called active. 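Higher z means weaker E2 silencing; only reporter increases were scored, and knock-downs that hurt cell survival may mask genuine repressor factors.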 No sequences are given here.

- Test: 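Human genes that papillomavirus E2 requires to repress the HPV18 LCR promoter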 (primary screen)
- Cells: human C33A cervical carcinoma cells (HPV-negative) stably expressing BPV1 E2 and an HPV18 LCR luciferase reporter
- Knock-down reagent: siRNA pool against human genes, 40 nM
- Time to read-out: 72 h
- Detection: 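HPV18 LCR reporter light per well, converted to plate-wise z-scores that exclude control wells, and averaged over triplicate plates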
- Direction: mean z-score and z-score: higher = stronger reporter signal, weaker E2 silencing
- Active means: 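Hit if mean z-score reaches 2 and two or more of three replicate z-scores also reach 2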

The opening 2 records, to show the layout:
Gene | mean z-score | z-score, replicate A | z-score, replicate B | z-score, replicate C | Outcome
CCDC188 | 0.34 | 0.48 | 0.34 | 0.21 | inactive
MS4A5 | -1.19 | -1.37 | -1.24 | -0.97 | inactive

Main list, from the first entry:
Gene | mean z-score | z-score, replicate A | z-score, replicate B | z-score, replicate C | Outcome
CCDC188 | 0.34 | 0.48 | 0.34 | 0.21 | inactive
MS4A5 | -1.19 | -1.37 | -1.24 | -0.97 | inactive
BEAN1 | -0.56 | -0.46 | -0.55 | -0.68 | inactive
CD58 | 1.76 | 1.78 | 1.78 | 1.73 | inactive
HSALR1 | 0.32 | – | -0.02 | 0.66 | inactive
ACSL1 | 1.03 | 1.14 | 1.03 | 0.92 | inactive
UTP15 | -1.06 | -1.41 | -0.96 | -0.82 | inactive
LOC389267 (retired record) | 0.85 | 1.75 | -0.03 | 0.82 | inactive
GK6P | -0.42 | -0.27 | -0.52 | -0.47 | inactive
LEFTY2 | -0.34 | -0.64 | -0.28 | -0.08 | inactive
UBAP1L | 0.15 | 0.28 | 0.18 | -0.01 | inactive
FXYD1 | 1.61 | 1.6 | 1.21 | 2.01 | inactive
AP3D1 | -0.47 | -0.38 | -0.5 | -0.53 | inactive
LOC399898 (retired record) | 0.44 | 0.63 | 0.38 | 0.3 | inactive
CNTF | 0.4 | 0.61 | 0.34 | 0.24 | inactive
ADAP1 | 0.73 | 0.49 | 0.95 | 0.76 | inactive
DLK1 | 0.7 | 0.12 | 0.96 | 1.01 | inactive
LRRC25 | -1.93 | -2.04 | -1.68 | -2.07 | inactive
BLNK | 1.61 | 1.86 | 1.5 | 1.48 | inactive
C14orf132 | -0.83 | -0.78 | -0.94 | -0.76 | inactive
ASIC1 | -0.01 | -0.25 | -0.29 | 0.52 | inactive
C1GALT1C1 | -1.5 | -1.71 | -1.87 | -0.91 | inactive
RPSAP55 | -2.5 | -2.98 | -2.27 | -2.27 | inactive
CHRFAM7A | -0.5 | -0.55 | -0.39 | -0.57 | inactive
CNN2 | -1.04 | -0.89 | -1.23 | -1 | inactive
GIGYF2 | 0.06 | 0.39 | -0.07 | -0.14 | inactive
CTSG | 0.24 | 0 | 0.34 | 0.39 | inactive
ERMARD | -0.73 | -0.68 | -0.59 | -0.92 | inactive
EXOC2 | -1.44 | -1.52 | -1.14 | -1.68 | inactive
FBXO46 | 0.19 | -0.1 | 0.37 | 0.31 | inactive
ZMPSTE24 | -0.48 | -0.02 | -0.63 | -0.79 | inactive
BFAR | -1.06 | -1.09 | -1.13 | -0.94 | inactive
LOC401220 (retired record) | -0.37 | -0.57 | -0.51 | -0.05 | inactive
SLC10A3 | -0.5 | -0.61 | -0.45 | -0.45 | inactive
NOTCH3 | -0.5 | -0.63 | -0.46 | -0.42 | inactive
CES4A | 0.15 | 0.13 | 0.18 | 0.15 | inactive
UPF3B | -1.45 | -1.53 | -1.35 | -1.47 | inactive
DHX32 | 0.73 | 0.29 | -0.11 | 2.02 | inactive
LOC391840 (retired record) | -0.6 | -1.01 | -0.52 | -0.28 | inactive
MMGT1 | 0.31 | 0.43 | 0.22 | 0.28 | inactive
SLC68A1 | -1.14 | -0.82 | -0.99 | -1.62 | inactive
PPA2 | -0.58 | -0.04 | -0.53 | -1.16 | inactive
BPIFC | -1.44 | -0.95 | -1.79 | -1.6 | inactive
FANCG | -0.8 | -0.37 | -0.93 | -1.09 | inactive
SPNS1 | -1.11 | -1.22 | -1.11 | -0.99 | inactive
GFRAL | -2.13 | -2.67 | -1.42 | -2.31 | inactive
GGA3 | 0.71 | 0.48 | 1.38 | 0.29 | inactive
PACRGL | 0.68 | 0.61 | 0.65 | 0.79 | inactive
OPN4 | -1.51 | -1.5 | -1.49 | -1.53 | inactive
CMTM3 | 0.75 | 0.72 | 0.63 | 0.91 | inactive
MLF2 | -0.84 | -0.85 | -0.98 | -0.68 | inactive
TRMT1 | 0.43 | 0.08 | 0.63 | 0.59 | inactive
PKDCC | -1.05 | -0.83 | -1.23 | -1.11 | inactive
LOC390427 (retired record) | -0.83 | -0.76 | -0.82 | -0.91 | inactive
LOC391062 (retired record) | -0.55 | -0.1 | -0.44 | -1.11 | inactive
IL18BP | 0.44 | 0.18 | 0.73 | 0.4 | inactive
TRIM24 | -0.35 | -0.38 | -0.34 | -0.33 | inactive
